Measurements taken from patent US20210324003A1.

Target: MT145K SOSIP.664 trimer (MT145 Q171K)
Test: ELISA
Design: unit not given beside the values
Settings: Fc fusion

## Human CD4-IgG2 immunoadhesin (from UniProt P01730 26-204)
  EC50: 0.562 ?
